This is a selection; strong and weak results do not stand in their true shares. The source made the active and inactive calls.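 Rule for the calls: active = inhibition above the average over every tested compound plus 3 SD (cut at about 40% in these data); inactive = the rest.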
What follows are compounds tested on Hepatitis C virus NS3 helicase (assay: HCV NS3 helicase inhibitors, primary screen, biochemical, fluorescence polarization, ChemBridge library (AID 687043)). Conditions: NS3h Cy5-dT15 DNA binding, at 100 µM, hits give high values.

SMILES | inhibition
CP(=O)(Oc1ccccc1)Oc1ccccc1 | inactive: -6.5%
CP(=O)(Oc1ccc(Cl)cc1)Oc1ccc(Cl)cc1 | inactive: 1.6%
CN(C)CCOC(=O)C(O)(c1ccccc1)c1ccccc1 | inactive: 9.1%
CP(=O)(Oc1ccccc1F)Oc1ccccc1F | inactive: -8.6%
CCc1ccc(OP(C)(=O)O)cc1 | inactive: -0.3%
CP(=O)(Oc1ccc(F)cc1)Oc1ccc(F)cc1 | inactive: -7.2%

Reference: PubChem BioAssay AID687043 (Milwaukee Institute for Drug Discovery, 2013)
